PubChem BioAssay AID504761 – Drosophila RNAi Screening Center | 2011

Screen: 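Insect host genes that dengue virus relies on to spread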 (primary screen)
System: D.Mel-2 cells from Drosophila
Reagents: long dsRNA against Drosophila genes
Conditions: infection with dengue virus type 2; dose and infection time not stated
Measured: 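Per well on two replicate plates, imaging gave the percent of cells positive for viral envelope protein, ranked by infection, and a nuclear count of cells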
Reading the numbers: infection score: higher = more virus-infected cells; cell count: higher = more cells in the well
Hit rule: 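Very low infection ranking in both replicate wells (chance probability at most 0.065), then a retest showing infection dropped 1.5-fold or more at p below 0.05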
Calls: active = confirmed: knock-down lowers infection; inactive = not picked or not confirmed
In all, the deposit lists about 22,000 reagents; this is a random part of those that have a named target and a result. In the full data, 116 (0.52%) are marked active. 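Calls depend on retest data that are not deposited; infection was ranked per plate without normalising between plates; the unit of the infection score is not given.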 Raw values vary from plate to plate and are shown uncorrected. A plus sign joins genes that one reagent is predicted to hit. Reagent sequences are not shown. Not given: the amount of reagent, the time to read-out.

no.	predicted target	DRSC id	infection score, replicate 1	infection score, replicate 2	cell count, replicate 1	cell count, replicate 2	call
1	CG14294	DRSC14774	3.32	10.4	6861	5235	inactive
2	CG5065	DRSC06912	16	6	4514	6716	inactive
3	Patsas	DRSC02975	13.9	24.2	6289	5897	inactive
4	Patsas	DRSC28826	22.9	12.6	3257	3714	inactive
5	Fancm	DRSC16348	2.34	1.53	6504	6458	inactive
6	Pi3K21B	DRSC00771	2.68	6.33	6196	5922	inactive
7	JMJD5	DRSC08372	5.04	4.62	5675	5828	inactive
8	JMJD5	DRSC25820	4.59	2.54	5572	5350	inactive
9	CG42299 + CG42300	DRSC19680	1.26	1.79	6333	6714	inactive
10	CG42299 + CG42300	DRSC19815	1.16	6.28	6650	6497	inactive
11	orb2	DRSC10540	6.15	13.8	6143	5696	inactive
12	orb2	DRSC10541	1.94	2.43	6766	6621	inactive
13	orb2	DRSC10542	5.79	9.45	6457	6401	inactive
14	orb2	DRSC25697	2.84	1.17	6410	6231	inactive
15	msps	DRSC17004	2.4	7.59	5420	5468	inactive
16	CG31802	DRSC02459		2.3	541	999	inactive
17	CG18764	DRSC15391	4.36	7.1	6337	6482	inactive
18	Mys45A	DRSC07067	14.6	15.8	3724	5403	inactive
19	Mys45A	DRSC25852	3.61	7.43	6100	6214	inactive
20	CG10505	DRSC04075	18.7	14.9	4912	5335	inactive
21	Lcp65Ag3	DRSC10345	3.09	18.2	5575	5531	inactive
22	CG16815	DRSC02521	20	19.2	4519	2516	inactive
23	CG16815	DRSC28136	12.4	13.1	6614	5723	inactive
24	CG15484	DRSC02494	7	8.76	5740	6613	inactive
25	CG15484	DRSC22836	1.02	9.47	6299	6675	inactive
26	CG17192	DRSC15186	4.32	4.59	6176	6400	inactive
27	CG17192	DRSC24691	4.83	6.11	6210	5405	inactive
28	CG2444	DRSC19846	2.39	3.86	6201	6291	inactive
29	ACXD	DRSC07843	5.81	2.86	6022	6362	inactive
30	ACXD	DRSC23762	10	10.3	5558	5158	inactive

Just “infection score, replicate 2”, for 5 of the entries above:
Mys45A [DRSC25852]: 7.43
CG10505 [DRSC04075]: 14.9
Lcp65Ag3 [DRSC10345]: 18.2
CG16815 [DRSC02521]: 19.2
CG16815 [DRSC28136]: 13.1

The results go on.
no.	predicted target	DRSC id	infection score, replicate 1	infection score, replicate 2	cell count, replicate 1	cell count, replicate 2	call
31	CG10845	DRSC14272	0.92	5.76	5987	5087	inactive
32	ovo	DRSC18050	0.82	1.66	5847	6326	inactive
33	ovo	DRSC25801	1.23	5.27	6360	5917	inactive
34	Raf	DRSC18821	3.35	4.06	6300	6645	inactive
35	Raf	DRSC23311	2.5	3.8	6207	6347	inactive
36	veli	DRSC16276	0.96	5.91	6231	6225	inactive
37	veli	DRSC27872	8.17	6.49	6184	6775	inactive
38	dgt6	DRSC14424	5.63	4.96	5777	6507	inactive
39	Pld3	DRSC03167	3.68	13.5	6113	2657	inactive
40	CG18586	DRSC10325	0.3	1.82	5947	5608	inactive
41	hpRNA:CR32205 + CG33255 (retired record)	DRSC28015	13.9	17.9	5457	6511	inactive
42	CG42516 + Pbp49	DRSC06073	2.98	8.15	5875	6405	inactive
43	sr	DRSC13284	6.19	4.73	5238	4571	inactive
44	sr	DRSC25793	2.76	2.68	6627	6483	inactive
45	Ass + CG31286	DRSC12493	16.5	30.2	5567	5130	inactive
46	Ptp36E	DRSC03021	0.17		584	440	inactive
47	bic	DRSC07584	15.5	11.2	5906	5923	inactive
48	bic	DRSC25656	3.28	7.57	6218	5984	inactive
49	CG4297	DRSC00651	10.2	13.1	6411	6585	inactive
50	tut	DRSC08909	3.71	3.01	6065	5582	inactive
51	HP5	DRSC19773	3.13	14.2	6712	6106	inactive
52	HP5	DRSC27040	10.7	6.3	6833	5840	inactive
53	kra	DRSC12320	7.93	16.4	6264	4328	inactive
54	Rgk3	DRSC04250	11.2	7.96	6532	6730	inactive
55	Rgk3	DRSC04254	3.7	12.6	6003	6546	inactive
56	Rgk3	DRSC04255	8.1	12	5914	5507	inactive
57	Rgk3	DRSC28131	16	12.9	5833	5396	inactive
58	CG6178	DRSC15984	2.24	1.94	6883	5879	inactive
